Measured values from several laboratories, pooled; numbers as filed in NIAID ChemDB.

All rows: whole-cell or culture tests; organism: Cryptococcus neoformans; read-out: MIC

Two numbers with a dash give a range or band. An empty or dashed field is not shown. Rows are shuffled and stem from different studies.

smiles | strain | result
CCOC(=O)c1sc2cc(-c3ccc(Cl)cc3)oc(=O)c2c1N | CN-17 | >100 µg/mL
CO[C@H]1[C@@H](O)[C@H](O)[C@H](OC[C@@]23C[C@@H]4[C@H](C)CC[C@H]4[C@@]4(C=O)C[C@@H]2C=C(C(C)C)[C@@]34C(=O)O)O[C@@H]1C | MY2062 | >100 µg/mL
O=C1/C(=C/c2ccc(O)cc2)COc2ccccc21 | 93/V | 6 µg/mL
CCOC(=O)c1sc(SC)c(C(=O)OCC)c1O | CN-17 | >100 µg/mL
OC(c1cc(-c2ccc(-c3ccccc3)cc2)nc2ccccc12)C1CCCCN1 | ATCC 90013 | 1.5 µg/mL
COc1ccccc1/C=C1\COc2ccccc2C1=O | 25 | 25 µg/mL
C=C1/C=C(\C)[C@H](CC)OC(=O)[C@H](C)C(=O)C(O)(CO)C/C(OC)=C/[C@@H](C)C1 | MY1051 | 0.002 µg/mL
Cc1cc(C)c2c(n1)sc1c(Cl)nnnc12 | - | >100 µg/mL
CCC(C)CC(C)CCCCCCCCC(=O)N[C@H]1C[C@@H](O)[C@H](NCCN)NC(=O)[C@@H]2[C@@H](O)CCN2C(=O)[C@H]([C@H](O)CCN)NC(=O)[C@H]([C@H](O)[C@@H](O)c2ccc(O)cc2)NC(=O)[C@@H]2C[C@@H](O)CN2C(=O)[C@H]([C@@H](C)O)NC1=O | 19 isolates | 0.5 µg/mL
COc1ccc(/C=C2\CSc3ccccc3C2=O)cc1 | 25 | 3 µg/mL
N#Cc1c(Cl)nc(SCc2ccc(Cl)cc2)nc1-c1cccs1 | - | >100 µg/mL
COc1ccc2c(c1)C(=O)/C(=C/c1ccc(OC)c(OC)c1)CO2 | 25 | 1.5 µg/mL
CCOC(=O)c1sc(SC)c(C#N)c1N | CN-17 | >100 µg/mL
COCCNC(=O)[C@H]1[C@@H]2C[C@@H](O[C@@H]3O[C@H](C)[C@@H](O)[C@H](N)[C@@H]3O)/C=C/C=C/C=C/C=C/C=C/C=C/C=C/[C@H](C)[C@@H](O)[C@H](C)[C@H](C)OC(=O)C[C@H](O)C[C@H](O)[C@@H](O)CC[C@H](O)C[C@H](O)C[C@](O)(C[C@@H]1O)O2 | 3 strains | 0.8–3.2 µg/mL
CC(C)=CCC/C(C)=C/Cc1c(O)cc(O)c(C(=O)c2ccccc2)c1O | - | 3.13 µg/mL
CCCSc1nc(Cl)c(C#N)c(-c2cccs2)n1 | - | >100 µg/mL
C=C(C)[C@@H]1CC[C@]2(C(=O)O)CC[C@]3(C)[C@H](CC[C@@H]4[C@@]5(C)CC[C@H](O)C(C)(C)[C@@H]5CC[C@]43C)[C@@H]12 | - | >25 µg/mL
CCOC(=O)c1cc(C)nc2sc3c(Cl)nnnc3c12 | - | >100 µg/mL
COc1c(O)ccc2c(=O)c3c(O)cc(O)cc3oc12 | - | >25 µg/mL
O=C1/C(=C/c2ccccc2[N+](=O)[O-])CCc2ccccc21 | 93/V | 100 µg/mL
CCOC(=O)c1sc2cc(-c3cccnc3)oc(=O)c2c1N | CN-17 | >100 µg/mL
COc1ccc(/C=C2\COc3ccc(SC)cc3C2=O)cc1 | Farwania | 12.5 µg/mL
CSc1cc(-c2ccc(C)cc2)c(C(=O)O)s1 | CN-17 | >100 µg/mL
O=C1/C(=C/c2ccccc2O)COc2ccccc21 | 25 | 12.5 µg/mL
CSc1cc(-c2ccc(F)cc2)c(C(=O)O)s1 | CN-17 | >100 µg/mL
CSc1nc(Cl)c(C#N)c(-c2ccc(F)cc2F)n1 | - | 3.12 µg/mL
COc1ccccc1/C=C1\COc2ccc(-c3ccccc3)cc2C1=O | Farwania | 50 µg/mL
CC(C)=CCc1c(O)cc(O)c2oc3cccc(O)c3c(=O)c12 | - | >25 µg/mL
CCOC(=O)c1sc(SC)cc1-c1ccc(Br)cc1 | CN-17 | >100 µg/mL
N#CC(CC(=O)O)C(N)C(=O)O | D49 | >100 µg/mL
O=c1c2cccc(O)c2oc2cc(O)cc(O)c12 | - | >25 µg/mL
CCOC(=O)c1sc(SC)cc1-c1ccc(F)cc1 | CN-17 | >100 µg/mL
OC(c1cc(-c2ccc(C(F)(F)F)cc2)nc(-c2ccc(C(F)(F)F)cc2)c1)C1CCCCN1 | ATCC 90013 | 0.4 µg/mL
CC(C)=CCc1c(O)cc(O)c2oc3cc(O)cc(O)c3c(=O)c12 | - | >25 µg/mL
O[C@](Cn1cncn1)(Cn1cnc(/C=C/c2ccc(OCC(F)(F)C(F)F)cc2)n1)c1ccc(F)cc1F | TIMM0362 | 0.39 µg/mL
COc1ccc2c(c1OC)CN1CCc3cc4c(cc3C1=C2)OCO4 | ATCC 36556 | 64 µg/mL
COc1ccc(/C=C2\CSc3ccccc3C2=O)cc1OC | Farwania | 100 µg/mL
CC(C)=CCc1ccc(O)c2oc3cc(O)cc(O)c3c(=O)c12 | - | >25 µg/mL

A second listing of 5 rows from above:

smiles | strain | result
CC(C)=CCc1c(O)cc(O)c2oc3cccc(O)c3c(=O)c12 | - | >25 µg/mL
N#CC(CC(=O)O)C(N)C(=O)O | D49 | >100 µg/mL
Cc1cc(C)c2c(n1)sc1c(Cl)nnnc12 | - | >100 µg/mL
OC(c1cc(-c2ccc(-c3ccccc3)cc2)nc2ccccc12)C1CCCCN1 | ATCC 90013 | 1.5 µg/mL
CC(C)=CCC/C(C)=C/Cc1c(O)cc(O)c(C(=O)c2ccccc2)c1O | - | 3.13 µg/mL